Pooled drug test results. Numbers come from NIAID ChemDB, via PubChem.

Common to all: growth or infection tests; species: Mycobacterium avium; endpoint: EC50

Conditions beyond the fields shown may differ between rows. An empty or dashed field is not shown. ECn is the concentration giving n% inhibition of infection, replication or growth.

| structure | strain | cells | value |
|---|---|---|---|
| OO | 485 | - | >0.0005 µM |
| CC[C@H]1OC(=O)[C@H](C)[C@@H](O[C@H]2C[C@@](C)(OC)[C@@H](O)[C@H](C)O2)[C@H](C)[C@@H](O[C@@H]2O[C@H](C)C[C@H](N(C)C)[C@H]2O)[C@](C)(O)C[C@](C)(F)C(=O)[C@H](C)[C@@H](O)[C@]1(C)O | 15 isolates (HIV+) | - | 50 µg/mL |
| O=c1[nH]c(=O)n([C@@H]2O[C@H](CO)[C@@H](O)[C@H]2O)cc1/C=C/Br | ATCC 25291 | - | >50 µg/mL |
| O=c1ccn(COCCO)c(=O)[nH]1 | ATCC 25291 | - | >100 µg/mL |
| O=c1[nH]c(=O)n([C@@H]2O[C@H](CO)[C@@H](O)[C@H]2F)cc1I | ATCC 25291 | - | >50 µg/mL |
| [N-]=[N+]=NC(CCl)c1cn(COC(CO)CO)c(=O)[nH]c1=O | ATCC 25291 | - | >100 µg/mL |
| N#C/C(=C\c1ccc(Br)cc1)n1nnc2ccccc21 | - | - | >12.5 µg/mL |
| O=c1[nH]c(=O)n(COCCO)cc1Cl | ATCC 25291 | - | >100 µg/mL |
| CC(O)c1cn([C@H]2C[C@H](O)[C@@H](CO)O2)c(=O)[nH]c1=O | ATCC 25291 | - | <5 µg/mL |
| CC[C@H]1OC(=O)[C@H](C)[C@@H](O[C@H]2C[C@@](C)(OC)[C@@H](O)[C@H](C)O2)[C@H](C)[C@@H](O[C@@H]2O[C@H](C)C[C@H](N(C)C)[C@H]2O)[C@](C)(O)C[C@@H](C)CN(C)[C@H](C)[C@@H](O)[C@]1(C)O | 15 isolates (HIV+) | - | 25 µg/mL |
| CCc1cn(COCCO)c(=O)[nH]c1=O | ATCC 25291 | - | >100 µg/mL |
| O=c1[nH]c(=O)n([C@H]2C[C@H](O)[C@@H](CO)O2)cc1/C=C/Br | ATCC 25291 | - | >50 µg/mL |
| CCCCCCCCCCC#Cc1cn(COCCO)c(=O)n(C#CCCCCCCCCCC)c1=O | ATCC 25291 | - | >100 µg/mL |
| O=c1nc2c(ncn2Cc2ccccc2)c(C#Cc2ccccc2)n1Cc1ccccc1 | - | VERO | <12.5 µg/mL |
| O=C1NC(Nc2ccc(Cl)cc2)=N/C1=C\c1ccccc1Cl | - | - | <12.5 µg/mL |
| O=c1[nH]c(=O)n(COCCO)cc1[N+](=O)[O-] | ATCC 25291 | - | >100 µg/mL |
| CCOC(=O)/C(N=Nc1ccc(C(=O)N/N=C/c2ccc([N+](=O)[O-])o2)cc1)=C(\C)O | - | - | >12.5 µg/mL |
| O=C1NC(Nc2cccc(Cl)c2)=N/C1=C\c1ccccc1Cl | - | - | <12.5 µg/mL |

For reference, 2 entries again:

structure | strain | cells | value
O=c1nc2c(ncn2Cc2ccccc2)c(C#Cc2ccccc2)n1Cc1ccccc1 | - | VERO | <12.5 µg/mL
CCc1cn(COCCO)c(=O)[nH]c1=O | ATCC 25291 | - | >100 µg/mL